Pooled drug test results. Numbers come from NIAID ChemDB, via PubChem.

Shared fields: whole-cell or culture tests; organism: Candida albicans; endpoint: MIC80

Blank or dashed fields: not listed here. MIC50, MIC90 and the like: level of inhibition, or share of isolates inhibited. Lines come from different laboratories, so protocols vary.

structure	strain	changes	setting	read by	value
NC(N)=Nc1ccc(SC2CCCCC2)cc1	ATCC 44859	-	-	-	500 µM
C[N+]1(Cc2ccc(Br)cc2)CCc2cc3c(cc2C1c1ccccc1)OCO3.[Br-]	Clinical isolate	Fluconazole-resistant	-	broth dilution	>64 µg/mL
CCCCCCCc1ccc(N=C(N)N)cc1	ATCC 44859	-	-	-	15.63 µM
Oc1ccc(N=Nc2c(Cl)cccc2Cl)c2cccnc12	-	-	-	-	31.25 µg/mL
COc1cccc(C[N+]2=Cc3cc4c(cc3CC2)OCO4)c1OC.[Br-]	Clinical isolate	Fluconazole-resistant	-	broth dilution	>64 µg/mL
COc1cc(C[C@H](C)[C@H](C)Cc2ccc(O)c(O)c2)ccc1O	CCC 129-2000	-	-	broth dilution	31.25 µg/mL
Oc1cccc(CCc2ccc(Oc3cc(CCc4cccc(O)c4)ccc3O)cc2)c1	BWP17-DPP3-GFP	-	-	broth dilution	>64 µg/mL
Cc1ccc2c([N+](=O)[O-])cc([N+](=O)[O-])c(O)c2n1	-	-	-	-	250 µg/mL
Oc1ccc(/C=C/c2cc(O)cc(O)c2)cc1	-	-	-	turbidity	>45.65 µg/mL
Oc1ccc2c(c1)CCc1ccc(cc1)Oc1cc(ccc1O)CCc1cc(O)ccc1-2	BWP17-DPP3-GFP	-	-	broth dilution	64 µg/mL
COc1ccc2c(c1OC)C[N+]1(Cc3ccccc3[N+](=O)[O-])CCc3cc4c(cc3C1C2)OCO4.[Br-]	Clinical isolate	Fluconazole-resistant	-	broth dilution	>64 µg/mL
COc1ccc2c(c1OC)CN1CCc3cc4c(cc3C1=C2)OCO4	Clinical isolate	Fluconazole-resistant	-	broth dilution	>64 µg/mL
CCCCCCCCCCCCCCCSc1ccc(N=C(N)N)cc1	ATCC 44859	-	-	-	250 µM
CN(C/C=C/C#CC(C)(C)C)Cc1cccc2ccccc12	-	-	clinical isolate	broth dilution	3.44 µM
CC(C)(C)c1ccc(C[N+]2=C(c3ccc(F)cc3F)c3cc4c(cc3CC2)OCO4)cc1.[Br-]	Clinical isolate	Fluconazole-resistant	-	broth dilution	64 µg/mL
Oc1ccc2cc1Oc1ccc(cc1)CCc1ccc(c(O)c1)-c1ccc(cc1O)CC2	BWP17-DPP3-GFP	-	-	broth dilution	64 µg/mL
COc1ccc2c(Cc3cccc([N+](=O)[O-])c3)c3[n+](cc2c1OC)CCc1cc2c(cc1-3)OCO2.[Br-]	Clinical isolate	Fluconazole-resistant	-	broth dilution	>64 µg/mL
CCCCCCCCCSc1ccc(N=C(N)N)cc1	ATCC 44859	-	-	-	7.81 µM
COC1Cc2cccc(c2)Oc2c(O)cccc2CCc2ccc(cc2)Oc2cc1cc(O)c2O	BWP17-DPP3-GFP	-	-	broth dilution	>64 µg/mL

The last 2 rows once more:

CCCCCCCCCSc1ccc(N=C(N)N)cc1 ; strain: ATCC 44859 ; value: 7.81 µM
COC1Cc2cccc(c2)Oc2c(O)cccc2CCc2ccc(cc2)Oc2cc1cc(O)c2O ; strain: BWP17-DPP3-GFP ; read by: broth dilution ; value: >64 µg/mL